Results of unrelated studies side by side (data: NIAID ChemDB).

Common to all: tests in culture; organism: Herpes simplex virus 1

Blank or dashed fields: not listed here. Conditions beyond the fields shown may differ between rows. ECn is the concentration giving n% inhibition of infection, replication or growth. Inhibition is in % at the dose shown (toxicity tests: loss of growth or viability).

smiles	strain or isolate	cells	method	read-out	dose	result
CCCCCCCCC#Cc1cn(CC=C(CO)CO)c(=O)[nH]c1=O	F	VERO	plaque count	EC90	-	>100 µM
CCOC(=O)P(=O)(OC)OC[C@H]1O[C@@H](n2cc(I)c(=O)[nH]c2=O)C[C@@H]1O	TK-	VERO	cytopathic effect	inhibition	19.8 µM	>25%
CC(=O)c1cn(CC=C(CO)CO)c(=O)[nH]c1=O	F	VERO	plaque count	EC90	-	>100 µM
NC(=S)N=Nc1c(O)[nH]c2ccccc12	PH	VERO	plaque count	inhibition	40 µM	75%
CCCCCC#Cc1cn(COCCO)c(=O)[nH]c1=O	F	VERO	plaque count	EC90	-	>100 µM
CC(=O)N[C@H]1[C@@H](O[C@@H]2O[C@H](C[C@@H](O)[C@H]3O[C@@H](n4ccc(=O)[nH]c4=O)[C@H](O)[C@@H]3O)[C@H](O)[C@H](O)[C@H]2NC(=O)/C=C/CC(C)C)O[C@H](CO)[C@@H](O)[C@@H]1O	-	BSC-1	plaque count	inhibition	0.5 µg/mL	98.43%
Nc1nc2c(ncn2COC(CO)CO)c(=O)[nH]1	KOS HPMPA-resistant	HEL	cytopathic effect	EC50	-	0.005 µg/mL
O=C(O)CP(=O)(O)OC[C@H]1O[C@@H](n2cc(CCCl)c(=O)[nH]c2=O)C[C@@H]1O	BRAND	VERO	cytopathic effect	inhibition	2.3 µM	>25%
O=C(O)P(=O)(O)O	-	GMK	plaque count	EC90	-	19.45 µg/mL
NC(=O)O[C@@H]1[C@@H](O)[C@H](O)[C@H](NC(=O)[C@@H]2CCC(N)=N2)[C@H](O)[C@H]1O[C@@H]1O[C@H](CO)[C@@H](O[C@H]2O[C@H](CO)[C@@H](O)[C@H](O)[C@H]2NC(=O)[C@@H](N)CCCN=C(N)N)[C@H](O)[C@@H]1O	KOS	HeLa	cytopathic effect	EC50	-	>200 µg/mL
Nc1ncnc2c1ncn2C[C@@H](CO)OCP(=O)(O)O	KOS HPMPC-resistant	HEL	cytopathic effect	EC50	-	1.7 µg/mL
CCOC(=O)P(=O)(O)OC[C@H]1O[C@@H](n2cc(CCCl)c(=O)[nH]c2=O)C[C@@H]1O	BRAND	VERO	cytopathic effect	inhibition	23.4 µM	>25%
CC(=O)c1cn(C/C=C/C(O)CO)c(=O)[nH]c1=O	F	VERO	plaque count	EC90	-	>100 µM
C=C1O[C@@](CO)(n2cnc3c(N)ncnc32)[C@H](O)[C@@H]1O	KOS	HeLa	cytopathic effect	EC50	-	>100 µg/mL
COP(=O)(CC(=O)OC[C@H]1O[C@@H](n2cc(I)c(=O)[nH]c2=O)C[C@@H]1O)OC	BRAND	VERO	cytopathic effect	inhibition	0.6 µM	>25%
COC(=O)c1cn([C@@H]2C[C@H](CCP(=O)(O)O)C[C@H]2O)nn1	F	VERO	plaque count	EC90	-	>100 µM
Nc1nc(N)c2ncn(CCOCP(=O)(O)O)c2n1	KOS HPMPA-resistant	HEL	cytopathic effect	EC50	-	2.9 µg/mL
NC(=S)N/N=C/c1cccnc1	PH	VERO	plaque count	inhibition	40 µM	5%
C[C@@H]1CC[C@@]2(OC1)O[C@H]1[C@@H](O)[C@H]3[C@@H]4CC[C@H]5C[C@@H](O[C@@H]6O[C@H](CO)[C@H](O[C@@H]7O[C@H](CO)[C@@H](O)[C@H](O[C@@H]8OC[C@@H](O)[C@H](O)[C@H]8O)[C@H]7O[C@@H]7O[C@H](CO)[C@H](O)[C@H](O[C@@H]8O[C@H](CO)[C@@H](O)[C@H](O)[C@H]8O)[C@H]7O)[C@H](O)[C@H]6O)[C@H](O)C[C@]5(C)[C@H]4CC[C@]3(C)[C@H]1[C@@H]2C	KOS	HeLa	cytopathic effect	EC50	-	>2 µg/mL
COC(=O)c1cn([C@@H]2C[C@H](CO)C[C@H]2O)nn1	F	VERO	plaque count	EC90	-	>100 µM
Nc1ncnc2c1ncn2CCOCP(=O)(O)O	PFA-resistant-2	HeLa	virus yield	EC90	-	>1000 µM
CCOC(=O)C(C)(C)Oc1ccc(Cl)cc1	TYLER	HeLa	virus yield	inhibition	400 µM	63%
O=C(O)P(=O)(O)O	PFA-resistant-1	HeLa	virus yield	EC90	-	900 µM
Nc1nc(=O)n([C@@H]2O[C@H](CO)[C@@H](O)[C@@H]2F)cc1I	KOS HPMPC-resistant	HEL	cytopathic effect	EC50	-	0.023 µg/mL
Nc1ncnc2c1ncn2C[C@@H](CO)OCP(=O)(O)O	KOS	U373-MG	cytopathic effect	EC50	-	12.1 µg/mL
CCOC(=O)P(=O)(OC)OC[C@H]1O[C@@H](n2cc(CCCl)c(=O)[nH]c2=O)C[C@@H]1O	TK-	VERO	cytopathic effect	inhibition	68.1 µM	>25%
Nc1ccn(C[C@@H](CO)OCP(=O)(O)O)c(=O)n1	KOS	U87MG	cytopathic effect	EC50	-	1.34 µg/mL
CC1CC(OC(=O)C(O)c2ccccc2)CC(C)(C)C1	KOS	HeLa	cytopathic effect	EC50	-	>400 µg/mL
CCn1c(O)c(N=NC(N)=S)c2ccccc21	PH	VERO	plaque count	inhibition	40 µM	99%
O=C(O)P(=O)(O)O	V8523	SIRC	plaque count	inhibition	500 µM	>99.9%
Cc1cn([C@@H]2O[C@H](CO)[C@@H](O)[C@@H]2O)c(=O)[nH]c1=O	KOS ACV-resistant	HEL	cytopathic effect	EC50	-	25 µg/mL
Cn1c(O)c(N=NC(N)=S)c2ccccc21	PH	VERO	plaque count	inhibition	40 µM	99%
CCOC(=O)P(=O)(OCCOCn1cnc2c(=O)[nH]c(N)nc21)OC(C)C	AVD	VERO	cytopathic effect	EC95	-	3.1 µM
NC(=O)c1cn([C@@H]2C[C@H](CCP(=O)(O)O)C[C@H]2O)nn1	F	VERO	plaque count	EC90	-	>100 µM
CCCCCCCCc1cc2cn(COCCO)c(=O)nc2o1	F	VERO	plaque count	EC90	-	>100 µM
COC(=O)[C@H]1[C@H](O)[C@@H](C)[C@@H](O)[C@](C)(O)/C=C(\C)C2=C3C(=C(C)C(=O)c4c(O)c(c(C)c(OC(C)=O)c43)NC(=O)/C(C)=C/C=C\[C@@H](C)C(O)[C@@H](C)[C@H]1O)OCO2	-	CV	plaque count	inhibition	26 µM	76.7%
C[C@@H]1O[C@@H]1P(=O)(O)O	KOS	HeLa	cytopathic effect	EC50	-	>200 µg/mL
Nc1ncnc2c1ncn2[C@@H]1O[C@H](CO)[C@@H](O)[C@@H]1O	KOS HPMPC-resistant	HEL	cytopathic effect	EC50	-	11.7 µg/mL

Again, the opening 5 rows:

smiles | strain or isolate | cells | method | read-out | dose | result
CCCCCCCCC#Cc1cn(CC=C(CO)CO)c(=O)[nH]c1=O | F | VERO | plaque count | EC90 | - | >100 µM
CCOC(=O)P(=O)(OC)OC[C@H]1O[C@@H](n2cc(I)c(=O)[nH]c2=O)C[C@@H]1O | TK- | VERO | cytopathic effect | inhibition | 19.8 µM | >25%
CC(=O)c1cn(CC=C(CO)CO)c(=O)[nH]c1=O | F | VERO | plaque count | EC90 | - | >100 µM
NC(=S)N=Nc1c(O)[nH]c2ccccc12 | PH | VERO | plaque count | inhibition | 40 µM | 75%
CCCCCC#Cc1cn(COCCO)c(=O)[nH]c1=O | F | VERO | plaque count | EC90 | - | >100 µM